These results are taken from PMC3566180, “Glucose 6P Binds and Activates HlyIIR to Repress Bacillus cereus Haemolysin hlyII Gene Expression” (PLoS ONE, 2013).

The data set has as its target HlyIIR (Bacillus cereus Bt407) (UniProt Q7X506). Nature of the data set: ITC. As to conditions: ITC200, 20 C, protein storage buffer (composition and pH not given), 28 uM HlyIIR in cell, 1.25 uM DNA injected (20 x 2 ul), recombinant protein, probe letters rebuilt from the primers and the genome.

Construct, isoform or probe ends are uncertain for at least one entry.

Broadly, the Kd is the equilibrium constant for the complex coming apart. “GGAAATAATGTATCTGAATATAGGCTGTAATAAGTAATTGAAAATATAGTAATTCTCGAAATGAAGAATTCTATAATTTTTTTGCAGTTTTTTAAACAACAATTTTAAATTTGTATTTAAAATTGTTGTTTAAATCGTTATTTTATGTTTTAATAATGTTGATAATAGTTATCAATAATAGTGAGAGGAAGATTAGTGAAACATGTG (double strand) [hlyII promoter fragment (220 bp)]”: the Kd runs as follows: (arabinose) 110 nM; (glucose 6P (1.7%)) 28.7 nM; (no glucose 6P (data not shown)) 110 nM.
